PubChem BioAssay AID624099, ICCB-Longwood, 2012

Aim: 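Host factors E2 relies on to silence an HPV18 LCR reporter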 (primary screen)
System: human C33A cervical carcinoma cells (HPV-negative) stably expressing BPV1 E2 and an HPV18 LCR luciferase reporter
Reagents: siRNA pool against human genes, 40 nM
Timing: 72 h
Measurement: 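Per-well luciferase luminescence, z-scored on each plate against the plate mean and SD with control wells left out, then averaged across three replicate plates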
Direction: mean z-score and z-score: higher = stronger reporter signal, weaker E2 silencing
Call rule: 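Mean z ≥ 2 together with z ≥ 2 in two or more of the three replicates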
This is one part, drawn at random, of about 21,000 reagents. 497 of all reagents (2.4%) count as active. 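Higher z means weaker E2 silencing; only reporter increases were scored, and knock-downs that hurt cell survival may mask genuine repressor factors.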 A number with no mark means an inactive call.

{"target gene": "LGALS4", "mean z-score": 0.26, "z-score, replicate A": 0.56, "z-score, replicate B": -0.06, "z-score, replicate C": 0.29}
{"target gene": "P4HA3", "mean z-score": -0.73, "z-score, replicate A": -1.18, "z-score, replicate B": -0.51, "z-score, replicate C": -0.51}
{"target gene": "NPTXR", "mean z-score": -2.17, "z-score, replicate A": -2.23, "z-score, replicate B": -2.23, "z-score, replicate C": -2.06}
{"target gene": "ERMAP", "mean z-score": -0.33, "z-score, replicate A": 0.15, "z-score, replicate B": -0.65, "z-score, replicate C": -0.48}
{"target gene": "ASNSD1", "mean z-score": -1.4, "z-score, replicate A": -1.48, "z-score, replicate B": -1.43, "z-score, replicate C": -1.29}
{"target gene": "ARIH2", "mean z-score": -0.87, "z-score, replicate A": -1.01, "z-score, replicate B": -0.93, "z-score, replicate C": -0.67}
{"target gene": "DUT", "mean z-score": 0.13, "z-score, replicate A": 0.55, "z-score, replicate B": 0.21, "z-score, replicate C": -0.36}
{"target gene": "EDDM3A", "mean z-score": 0.44, "z-score, replicate A": 0.3, "z-score, replicate B": 0.76, "z-score, replicate C": 0.27}
{"target gene": "LOC390121 (retired record)", "mean z-score": -0.18, "z-score, replicate A": -0.11, "z-score, replicate B": -0.12, "z-score, replicate C": -0.31}

2 entries already listed, ordered by “z-score, replicate C”, high to low:
{"target gene": "P4HA3", "mean z-score": -0.73, "z-score, replicate A": -1.18, "z-score, replicate B": -0.51, "z-score, replicate C": -0.51}
{"target gene": "NPTXR", "mean z-score": -2.17, "z-score, replicate A": -2.23, "z-score, replicate B": -2.23, "z-score, replicate C": -2.06}

Continued:
{"target gene": "SAT2", "mean z-score": 0.29, "z-score, replicate A": 0.34, "z-score, replicate B": 0.39, "z-score, replicate C": 0.15}
{"target gene": "C16orf78", "mean z-score": -0.48, "z-score, replicate A": 0.06, "z-score, replicate B": -0.65, "z-score, replicate C": -0.84}
{"target gene": "EXOG", "mean z-score": 0.55, "z-score, replicate A": 0.43, "z-score, replicate B": 0.76, "z-score, replicate C": 0.47}
{"target gene": "MAML3", "mean z-score": -0.76, "z-score, replicate A": -0.93, "z-score, replicate B": -0.99, "z-score, replicate C": -0.36}
{"target gene": "XRCC1", "mean z-score": -0.26, "z-score, replicate A": -0.07, "z-score, replicate B": -0.41, "z-score, replicate C": -0.3}
{"target gene": "CENPN", "mean z-score": -0.19, "z-score, replicate A": -0.31, "z-score, replicate B": -0.13, "z-score, replicate C": -0.12}
{"target gene": "LRRC10B", "mean z-score": -2.03, "z-score, replicate A": -2.22, "z-score, replicate B": -1.59, "z-score, replicate C": -2.28}
{"target gene": "RPL23P8", "mean z-score": 0.24, "z-score, replicate A": 0.44, "z-score, replicate B": 0.36, "z-score, replicate C": -0.08}
{"target gene": "MAN2A2", "mean z-score": 0.98, "z-score, replicate A": 1.34, "z-score, replicate B": 0.53, "z-score, replicate C": 1.06}
{"target gene": "GRPEL1P3", "mean z-score": -1.1, "z-score, replicate A": -1.27, "z-score, replicate B": -0.72, "z-score, replicate C": -1.32}
{"target gene": "KRTAP10-4", "mean z-score": 0.31, "z-score, replicate A": 0.11, "z-score, replicate B": 0.37, "z-score, replicate C": 0.45}
{"target gene": "JPT2", "mean z-score": -1.83, "z-score, replicate A": -1.69, "z-score, replicate B": -1.96, "z-score, replicate C": -1.86}
